Assay [1] addresses T1, IMPDHpa (Pseudomonas aeruginosa, UniProt Q9HXM5). Put plainly: ATP-γ-AmNS fluorescence binding. Particulars: excitation at 323 nm; ATP-γ-AmNS 1 μM, 5 mM MgCl2.
The target in assay [2] is T1, IMPDHpa. Put plainly: IMPDH enzymatic assay (NADH formation), steady state kinetics. Particulars: non saturating concentrations of both substrates.
For assay [3], the target named is T2, IMPDHkp (Klebsiella pneumoniae, UniProt A6TCC3). As to the kind of experiment: Analytical ultracentrifugation, sedimentation velocity with substrates or effector. Particulars: enzyme 1 mg/mL (18.4 μM); IMP 10 mM, NAD 3 mM, MgATP 3 mM; higher order species also present.
For assay [4], the target named is T3, IMPDHbt (Burkholderia thailandensis, UniProt Q2SWW9). The description is as above. Particulars: enzyme 1 mg/mL (18.5 μM), IMP 10 mM, NAD 3 mM, MgATP 3 mM.
Assay [5] concerns the target T4, IMPDHsa (Staphylococcus aureus, UniProt P99106). The assay is described as above. Particulars: enzyme 1 mg/mL (18.2 μM), IMP 10 mM, NAD 7 mM, MgATP 3 mM.
For assay [6], the target named is T5, IMPDHba (Bacillus anthracis, UniProt A0A6L8P2U9). The assay is described as above. Particulars: enzyme 1 mg/mL (18.3 μM), IMP 10 mM, NAD 3 mM, MgATP 3 mM.
Assay [7] deals with T1, IMPDHpa. The assay is described as above. To be noted: enzyme 1 mg/mL (18.6 μM), IMP 10 mM, NAD 3 mM, MgATP 3 mM.
The target in assay [8] is T6, IMPDHlpp (Legionella pneumophila subsp. pneumophila, UniProt Q5ZUR9). The assay is described as above. Particulars: enzyme 1 mg/mL (18.3 μM), IMP 10 mM, NAD 3 mM, MgATP 3 mM.
For assay [9], the target named is T2, IMPDHkp. Put plainly: IMPDH enzymatic assay (NADH formation), steady state kinetics. Particulars: IMP 1 mM.
Assay [10] deals with T3, IMPDHbt. The description is as above.
Another assay concerns IMPDHnm. The assay is described as above. To be noted: IMP 3 mM.
The target of assay [11] is T4, IMPDHsa. The assay is described as above. To be noted: IMP 2 mM.
Assay [12] addresses T5, IMPDHba. Described as above. Particulars: IMP 2 mM.
Assay [13] deals with T6, IMPDHlpp. The assay is described as above. Particulars: IMP 2 mM.
The target of assay [14] is T1, IMPDHpa. To be noted: IMP 7 mM, cited from earlier work.
[15] abbreviates: read-out: Km, NAD as variable substrate, with MgATP, with MgATP.
The mark [16] stands for this setting: read-out: Km, NAD as variable substrate, without MgATP.

Chains of the proteins cited; added tags and fusions are not shown. Lines headed by an entry give the natural chain unless they say otherwise; changes in a name come on top. Residues count along the entry.
UniProt Q9HXM5, 1-489: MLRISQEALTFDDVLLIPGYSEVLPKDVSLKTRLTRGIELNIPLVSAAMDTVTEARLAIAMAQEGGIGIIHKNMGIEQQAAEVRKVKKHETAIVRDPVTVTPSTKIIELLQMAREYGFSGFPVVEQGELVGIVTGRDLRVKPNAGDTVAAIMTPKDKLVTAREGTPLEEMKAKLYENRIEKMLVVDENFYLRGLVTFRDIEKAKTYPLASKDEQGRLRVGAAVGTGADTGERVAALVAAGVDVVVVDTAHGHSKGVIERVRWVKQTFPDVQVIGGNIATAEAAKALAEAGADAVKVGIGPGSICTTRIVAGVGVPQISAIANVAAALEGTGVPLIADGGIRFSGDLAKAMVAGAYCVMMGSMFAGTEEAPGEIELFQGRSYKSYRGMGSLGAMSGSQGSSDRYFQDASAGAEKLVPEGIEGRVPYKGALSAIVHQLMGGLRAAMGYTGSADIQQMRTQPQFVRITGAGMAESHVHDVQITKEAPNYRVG
UniProt Q2SWW9, 1-486: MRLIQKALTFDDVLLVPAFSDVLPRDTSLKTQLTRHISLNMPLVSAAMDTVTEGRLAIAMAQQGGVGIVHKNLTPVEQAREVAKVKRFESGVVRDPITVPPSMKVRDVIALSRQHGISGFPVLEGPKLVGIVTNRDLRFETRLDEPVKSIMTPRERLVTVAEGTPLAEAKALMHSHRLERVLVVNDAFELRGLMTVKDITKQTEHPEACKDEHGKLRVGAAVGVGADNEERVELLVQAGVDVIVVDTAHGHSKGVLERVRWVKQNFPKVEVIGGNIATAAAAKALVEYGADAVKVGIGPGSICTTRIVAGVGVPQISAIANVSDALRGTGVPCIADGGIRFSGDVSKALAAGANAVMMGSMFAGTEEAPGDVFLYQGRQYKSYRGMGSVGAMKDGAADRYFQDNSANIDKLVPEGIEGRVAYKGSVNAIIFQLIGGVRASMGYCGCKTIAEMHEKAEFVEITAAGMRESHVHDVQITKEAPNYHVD
UniProt P99106: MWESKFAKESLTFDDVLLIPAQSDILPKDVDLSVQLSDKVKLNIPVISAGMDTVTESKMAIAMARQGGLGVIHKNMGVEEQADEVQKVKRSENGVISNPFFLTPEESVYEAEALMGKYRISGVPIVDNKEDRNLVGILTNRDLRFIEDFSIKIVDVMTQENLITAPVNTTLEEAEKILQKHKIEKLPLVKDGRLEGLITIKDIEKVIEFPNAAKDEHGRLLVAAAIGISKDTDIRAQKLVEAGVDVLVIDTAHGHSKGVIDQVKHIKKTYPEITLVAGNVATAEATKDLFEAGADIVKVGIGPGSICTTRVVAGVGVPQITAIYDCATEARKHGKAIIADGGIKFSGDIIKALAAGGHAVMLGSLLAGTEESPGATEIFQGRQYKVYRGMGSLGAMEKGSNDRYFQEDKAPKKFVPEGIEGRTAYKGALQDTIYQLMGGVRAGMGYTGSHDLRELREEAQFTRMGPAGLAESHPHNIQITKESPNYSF
UniProt A0A6L8P2U9, 1-487: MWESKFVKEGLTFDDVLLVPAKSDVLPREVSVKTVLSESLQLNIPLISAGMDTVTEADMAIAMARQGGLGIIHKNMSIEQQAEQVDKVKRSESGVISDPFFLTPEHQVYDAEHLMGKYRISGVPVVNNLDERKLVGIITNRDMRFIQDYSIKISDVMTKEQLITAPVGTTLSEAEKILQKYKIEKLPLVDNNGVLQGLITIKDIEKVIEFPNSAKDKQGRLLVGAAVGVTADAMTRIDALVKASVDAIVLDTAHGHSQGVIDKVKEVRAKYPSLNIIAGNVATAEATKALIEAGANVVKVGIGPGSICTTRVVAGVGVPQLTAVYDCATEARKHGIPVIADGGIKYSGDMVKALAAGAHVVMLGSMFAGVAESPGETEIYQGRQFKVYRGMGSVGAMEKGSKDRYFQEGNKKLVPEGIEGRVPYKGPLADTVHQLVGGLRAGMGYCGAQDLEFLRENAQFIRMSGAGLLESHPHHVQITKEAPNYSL
UniProt Q5ZUR9, 1-490: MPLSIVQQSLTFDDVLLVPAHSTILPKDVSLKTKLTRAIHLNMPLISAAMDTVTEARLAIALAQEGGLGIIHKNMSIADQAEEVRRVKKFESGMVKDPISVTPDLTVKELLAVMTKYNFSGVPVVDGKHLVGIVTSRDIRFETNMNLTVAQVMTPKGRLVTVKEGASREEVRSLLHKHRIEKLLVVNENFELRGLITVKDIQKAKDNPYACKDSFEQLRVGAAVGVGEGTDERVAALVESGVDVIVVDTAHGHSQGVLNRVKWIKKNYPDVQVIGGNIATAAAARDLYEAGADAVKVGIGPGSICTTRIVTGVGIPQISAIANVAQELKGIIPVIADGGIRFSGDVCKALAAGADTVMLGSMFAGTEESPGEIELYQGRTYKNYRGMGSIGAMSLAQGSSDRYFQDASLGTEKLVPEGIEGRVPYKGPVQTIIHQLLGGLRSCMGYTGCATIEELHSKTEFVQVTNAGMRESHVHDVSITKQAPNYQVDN

Values joined by “and” are separate entries in the source; they are usually repeats but may differ in a detail not shown here. Equal values may be shown once. Read-outs that look alike come from different tables or passages of the source.

The term Km denotes the substrate concentration at which the rate is half of its maximum.

As for “Adenosine-5′-triphosphate-γ-(sulfo-1-naphtyl)amide, triethylammonium salt”, at IMPDHpa [1], the “change of ATP-γ-AmNS fluorescence upon addition of the enzyme” value is recorded as “increase in fluorescence intensity as well as a shift of the emission spectrum to shorter wavelengths”. Moreover, the “increase of IMPDHpa reaction rate (factor)” value on IMPDHpa [2] turned out to be 5.6.

For `NC(=O)c1ccc[n+]([C@@H]2O[C@H](COP(=O)([O-])OP(=O)(O)OC[C@H]3O[C@@H](n4cnc5c(N)ncnc54)[C@H](O)[C@@H]3O)[C@@H](O)[C@H]2O)c1`, the “S20, W of the enzyme in the presence of the ligand” value at IMPDHkp [3] was 14.9 ± 0.4 S; at IMPDHbt [4] (interference), 15.5 ± 0.3 S; on IMPDHsa [5] (interference), 10.0 ± 0.6 S and 14.0 ± 0.9 S; at IMPDHba [6] (interference) it was 14.4 ± 0.6 S; at IMPDHpa [7] (interference) it was 15.3 ± 0.1 S; on IMPDHlpp [8] (interference) it was 15.9 ± 0.2 S. Besides, the f/f0 of the enzyme in the presence of the ligand on IMPDHkp [3] was 1.3 ^†; at IMPDHbt [4] it was 1.30; at IMPDHsa [5], 1.25 and 1.40; at IMPDHba [6] it was 1.35; on IMPDHpa [7] it was 1.30; at IMPDHlpp [8] it was 1.25. The “Vm, NAD as variable substrate, without MgATP” value at IMPDHkp [9] is reported as 14.00 ± 0.10 U/mg; on IMPDHbt [10] (IMP 1 mM), 2.82 ± 0.07 U/mg; in the assay with IMPDHnm, 1.62 ± 0.03 U/mg; on IMPDHsa [11], 11.10 ± 0.12 U/mg; on IMPDHba [12], 6.53 ± 0.19 U/mg; at IMPDHlpp [13] (30°C), 1.88 ± 0.06 U/mg. Moreover, the “Vm, NAD as variable substrate, without MgATP” value at IMPDHpa [14] is listed as 2.26 ± 0.07 U/mg. The “Vm, NAD as variable substrate, with MgATP” value on IMPDHkp [9] (with MgATP) worked out at 13.80 ± 0.30 U/mg; at IMPDHbt [10] (IMP 1 mM, MgATP 5 mM (Fig 3)) it was 2.78 ± 0.14 U/mg; with IMPDHnm (MgATP 2 mM), 3.48 ± 0.07 U/mg; at IMPDHsa [11] (with MgATP) it was 11.80 ± 0.50 U/mg; at IMPDHba [12] (with MgATP), 5.93 ± 0.36 U/mg; at IMPDHlpp [13] (MgATP 5 mM), 4.06 ± 0.19 U/mg. Moreover, the “Vm, NAD as variable substrate, with MgATP” value at IMPDHpa [14] (MgATP 3 mM) is 9.00 ± 0.5 U/mg. In addition, the Michaelis-Menten constant (Km) at IMPDHkp [9] (setting [15]) was found to be 1120 µM; on IMPDHbt [10] (read-out: Km, NAD as variable substrate, with MgATP, IMP 1 mM, MgATP 5 mM (Fig 3)), 418 µM; at IMPDHbt [10] (read-out: Km, NAD as variable substrate, without MgATP, IMP 1 mM) it was 355 µM; with IMPDHnm (read-out: Km, NAD as variable substrate, with MgATP, MgATP 2 mM), 477 µM; in the assay on IMPDHnm (setting [16]), 269 µM; at IMPDHsa [11] (setting [16]), 2350 µM. Further, the Michaelis-Menten constant (Km) at IMPDHba [12] (setting [15]) is 1990 µM; at IMPDHba [12] (setting [16]) it was 2210 µM; at IMPDHlpp [13] (read-out: Km, NAD as variable substrate, without MgATP, 30°C) it was 998 µM; on IMPDHpa [14] (read-out: Km, NAD as variable substrate, with MgATP, MgATP 3 mM), 498 µM; at IMPDHpa [14] (setting [16]), 139 µM. Moreover, the “inhibition by excess of NAD” value on IMPDHbt [10] (IMP 1 mM (Fig 3A)) is listed as “slight inhibition by excess of NAD”. Moreover, the Ki at IMPDHpa [14] (read-out: Ki, NAD as variable substrate, with MgATP, substrate inhibition by NAD, MgATP 3 mM) was 4.07 mM.
